Patent US8779141B2, “Viral inhibitors” (Gilead Sciences, Inc., priority 2002, dated 2014)

These compounds were tested on BVDV-1 (strain PE515) (assay: Anti-BVDV assay, virus-induced cytopathic effect in MDBK cells (MTS)). Conditions: Table 9; SI: IC50/EC50 (MDBK growth / anti-BVDV).
Format: cell-based, Bovine Viral Diarrhea Virus
Description: Madin-Darbey Bovine Kidney (MDBK) cells were maintained in Dulbecco's modified Eagle medium (DMEM) supplemented with BVDV-free 5% fetal calf serum (DMEME-FCS) at 37° C. in a humidified, 5% CO2 atmosphere. BVDV-1 (strain PE515) was used to assess the antiviral activity in MDBK cells. Vero cells were maintained in the same way as MDBK cells. Vero cells were infected with Coxsackie B3 virus (strain Nancy).
Ninety-six-well cell culture plates were seeded with MDBK cells in DMEM-FCS so that cells reached 24 hr later confluency. Then medium was removed and serial 5-fold dilutions of the test compounds were added in a total volume of 100 ul, after which the virus inoculum (100 ul) was added to each well. […] Uninfected cells and cells receiving virus without compound were included in each assay plate. After 5 days, medium was removed and 90 μl of DMEM-FCS and 10 ul of MTS/PMS solution (Promega) was added to each well. Following a 2 hr incubation period at 37° C. the optical density of the wells was read at 498 nm in a microplate reader.
Compound `Brc1ccc(Cn2ccc3nc(-c4cccc5ccccc45)nc-3c2)cc1` [GPJN-62, 5-[(4-Bromophenyl)methyl]-2-(1-naphthalenyl)-5H-imidazo[4,5-c]pyridine] has an SI of 78. With `CC(C)(C)c1ccc(Cn2ccc3nc(-c4ccccc4)nc-3c2)cc1` [GPJN-16, 5-[[4-(1,1-Dimethylethyl)phenyl]methyl]-2-phenyl-5H-imidazo[4,5-c]pyridine] the SI was 33. `Brc1ccc(Cn2ccc3nc(-c4ccccn4)nc-3c2)cc1` [GPJN-58, 5-[(4-Bromophenyl)methyl]-2-(2-pyridinyl)-5H-imidazo[4,5-c]pyridine] gave an SI of 156.

Same assay, conditions: Table 10; SI: MTC/EC50
In the case of `Fc1ccccc1-c1nc2ccn(Cc3ccc(I)cc3)cc-2n1` [GPJN-113, 2-(2-Fluorophenyl)-5-[(4-iodophenyl)methyl]-5H-imidazo[4,5-c]pyridine], the SI is reported as 6452. In the case of `Fc1ccccc1-c1nc2ccn(Cc3ccc(Cl)cc3)cc-2n1` [GPJN-112, 5-[(4-Chlorophenyl)methyl]-2-(2-fluorophenyl)-5H-imidazo[4,5-c]pyridine], the SI is reported as 4082.

Each compound was assayed on HCV replicon in Huh-5-2 cells (assay: Anti-HCV replicon assay, luciferase activity in Huh-5-2 cells). Conditions: Table 11; HCV-Huh-5-2 replicon cells; ratio CC50 / EC50.
Format: cell-based, Hepatitis C Virus
Description: Cells were seeded at a density of 7000 cells per well in 96 well View Plate™ (Packard) in medium containing the same components as described above, except for G418. Cells were allowed to adhere and proliferate for 24 hr. At that time, culture medium was removed and serial dilutions of the test compounds were added in culture medium lacking G418. Interferon alfa 2a (500 IU) was included as a positive control. Plates were further incubated at 37° C. and 5% CO2 for 72 hours. Replication of the HCV replicon in Huh-5 cells results in luciferase activity in the cells. Luciferase activity is measured by adding 50 μl of 1× Glo-lysis buffer (Promega) for 15 minutes followed by 50 ul of the Steady-Glo Luciferase assay reagent (Promega). Luciferase activity is measured with a luminometer and the signal in each individual well is expressed as a percentage of the untreated cultures. […] Instead the density of the culture is measured by means of the MTS method (Promega).
`Brc1ccc(Cn2ccc3nc(-c4cccc5ccccc45)nc-3c2)cc1` [GPJN-62, 5-[(4-Bromophenyl)methyl]-2-(1-naphthalenyl)-5H-imidazo[4,5-c]pyridine] was tested, and the SI was >10. In the case of `Fc1ccccc1-c1nc2ccn(Cc3ccc(I)cc3)cc-2n1` [GPJN-113, 2-(2-Fluorophenyl)-5-[(4-iodophenyl)methyl]-5H-imidazo[4,5-c]pyridine], the SI is reported as 82. In the case of `Brc1ccc(Cn2ccc3nc(CSc4ccccc4)nc-3c2)cc1` [GPJN-83, 5-[(4-Bromophenyl)methyl]-2-[(phenylthio)methyl]-5H-imidazo[4,5-c]pyridine], the SI is reported as >12. For `CC(C)(C)c1ccc(Cn2ccc3nc(-c4ccccc4)nc-3c2)cc1` [GPJN-16, 5-[[4-(1,1-Dimethylethyl)phenyl]methyl]-2-phenyl-5H-imidazo[4,5-c]pyridine], the SI was 3. In the case of `FC(F)(F)c1cccc(-c2nc3ccn(Cc4ccc(Br)cc4)cc-3n2)c1` [GPJN-87, 5-[(4-Bromophenyl)methyl]-2-[3-(trifluoromethyl)phenyl]-5H-imidazo[4,5-c]pyridine], the SI is reported as >32. Compound `Brc1ccc(Cn2ccc3nc(-c4ccccn4)nc-3c2)cc1` [GPJN-58, 5-[(4-Bromophenyl)methyl]-2-(2-pyridinyl)-5H-imidazo[4,5-c]pyridine] has an SI of 15. For `Fc1ccccc1-c1nc2ccn(Cc3ccc(Cl)cc3)cc-2n1` [GPJN-112, 5-[(4-Chlorophenyl)methyl]-2-(2-fluorophenyl)-5H-imidazo[4,5-c]pyridine], the SI was >58.
